# Test results taken from ChEMBL document CHEMBL1151749, “Discovery of quinazolines as histamine H4 receptor inverse agonists using a scaffold hopping approach” (J Med Chem, 2008).
# Sequences of proteins named here, by UniProt entry; tags and fusion partners are left off. A change or cut given only in a name is not applied to a line headed by its entry.
# UniProt Q9H3N8: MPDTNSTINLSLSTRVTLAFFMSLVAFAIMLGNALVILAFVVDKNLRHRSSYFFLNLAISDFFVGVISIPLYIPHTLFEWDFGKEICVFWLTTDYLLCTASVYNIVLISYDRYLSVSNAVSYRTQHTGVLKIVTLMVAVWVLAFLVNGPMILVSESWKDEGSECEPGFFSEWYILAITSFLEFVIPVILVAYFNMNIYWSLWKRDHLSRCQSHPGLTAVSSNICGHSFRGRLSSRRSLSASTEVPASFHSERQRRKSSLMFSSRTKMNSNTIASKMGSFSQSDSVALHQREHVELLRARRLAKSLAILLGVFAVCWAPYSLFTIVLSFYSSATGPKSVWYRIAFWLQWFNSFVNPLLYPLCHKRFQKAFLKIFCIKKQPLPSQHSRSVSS
# Target: Histamine H4 receptor (Homo sapiens, UniProt Q9H3N8)
# Assay: Inverse agonist activity at human histamine H4 receptor expressed in HEK293T cells by CRE-beta-galactosidase assay
# Type: functional, cell-based, HEK-293T
smiles,measurement,value
CN1CCN(c2nc(NCc3cccs3)c3cc(Cl)ccc3n2)CC1,IC50,0.0692 µM
